Test system: root knot nematodes (Meloidogyne incognita)
Experiment: systemic control of root knot nematodes on tomato roots by foliar application
Assay type: in vivo
Details: tomato cv Rutgers, 3 weeks; for Mean percent root disease (galled): mean of three plants, non-treated generally 60% or greater; for percent control of root disease relative to non-treated plants: * = no biological activity at the rate tested

| Molecule | Mean percent root disease (galled) (100 ppm foliar spray) [%] | percent control of root disease relative to non-treated plants (100 ppm foliar spray) [%] | Mean percent root disease (galled) (500 ppm foliar spray) [%] | percent control of root disease relative to non-treated plants (500 ppm foliar spray) [%] |
| --- | --- | --- | --- | --- |
| CCOP(=O)(CC(F)=C(F)F)OCC | 30 | 44 | 27 | 50 |
| Phosphonic acid, [[(3,4,4-trifluoro-1-oxo-3 butenyl)amino]methyl]-, disodium salt | 87 | -8 | 80 | 0 |

— patent publication US5708032A, “Fluoroalkenyl compounds and their use as pest control agents” (Monsanto Company, priority 1995, dated 1998)
